Pooled drug test results. Numbers come from NIAID ChemDB, via PubChem.

All rows: tests in culture; agent: Hepatitis C virus; endpoint: EC50

Two numbers with a dash give a range or band. Blank or dashed fields: not listed here. Lines come from different laboratories, so protocols vary. ECn: concentration that inhibits the pathogen or its effect by n%.

compound | strain or isolate | changes | cell line | read by | result
CC(C)(C)NC(=O)N[C@H](C(=O)N1C[C@H]2[C@@H]([C@H]1C(=O)NC(CC1CCC1)C(=O)C(N)=O)C2(C)C)C(C)(C)C | GT3a | P89L K583E | 1C | luciferase | 0.368 µM
CC[C@H](C)C(=O)O[C@H]1C[C@@H](C)C=C2C=C[C@H](C)[C@H](CC[C@@H]3C[C@@H](O)CC(=O)O3)[C@H]21 | - | - | HUH7-K2040 | - | >10 µM
CC(=O)Nc1ccc(-c2ccc(Cl)cc2)c(COc2ccc(-c3nc4cc(C(=O)O)ccc4n3C3CCCCC3)cc2)c1 | - | - | JFH1 | luciferase | 7.408 µM
O=c1c(O)c(-c2ccc(O)c(O)c2)oc2cc(O)c(O)c(O)c12 | J6/JFH1 | - | Huh7.5 | PCR | 40.2 µM
CC1(O)C(O)C(CO)OC1n1cnc2c(N)ncnc21 | GT3a | P89L K583E | 1C | luciferase | 0.025 µM
Cc1c2cc[n+](CCN3CCCCC3)cc2c(C)c2c1[nH]c1ccc(O)cc12 | JFH-1 | - | Huh7-1 | PCR | 2.5 µM
NC(=O)c1nn(Cc2ccc(NC(=O)c3ccccc3)cc2)c2ccccc12 | J399EM | - | Huh7.5.1 | fluorescence | >10 µM
NC(=O)c1ncn([C@@H]2O[C@H](CO)[C@@H](O)[C@H]2O)n1 | - | - | HUH7/REP-FEO | - | 125.8 µM
Cc1cc2c(cc1-c1cc(/C=C/C(=O)O)ccc1O)C(C)(C)CCC2(C)C | - | - | Huh7.5.1 | MTT | 0.00026 µM
O=C1NNC(=O)c2[nH]cnc2N1 | - | - | HepG2.2.15 | cytopathic effect | >500 µM
Cc1cc(N2CCCCC2)nc2ccc(Cc3ccc4nc(N5CCCCC5)cc(C)c4c3)cc12 | JFH-1 | - | Huh7-1 | PCR | 0.4 µM
C=C[C@@H]1C[C@]1(NC(=O)[C@@H]1C[C@@H](c2csc(-c3ccccc3OCC)n2)CN1C(=O)C(NC(=O)OC1CCCC1)C(C)(C)C)C(=O)NS(=O)(=O)C1CC1 | - | - | Huh7 cells | replicon | 0.43 µM
NC(=O)c1nn(Cc2cccc(NC(=O)c3ccc([N+](=O)[O-])cc3)c2)c2ccccc12 | J399EM | - | Huh7.5.1 | fluorescence | 0.007 µM
C[C@@]1(O)[C@H](O)[C@@H](CO)O[C@H]1n1cnc2c(N)ncnc21 | - | - | Con-1 | luciferase | 0.3031 µM
CC1CCC(C(=O)N(c2cc(C#CC(C)(C)C)sc2C(=O)O)C2CCC(O)CC2)CC1 | GT3a | - | Huh7.5 | luciferase / replicon | 12.03 µM
CC1(C)CCC(C)(C)C2C=C(NC(=O)c3ccc(C(=O)O)cc3)C=CC21 | - | - | Huh7.5.1 | MTT | 0.00000647 µM
NC(=O)c1ncn([C@@H]2O[C@H](CO)[C@@H](O)[C@H]2O)n1 | J399EM | - | Huh7.5.1 | GFP / fluorescence | >10 µM
Nc1nc(=O)c2ncn([C@@H]3C[C@H](O)[C@@H](CO)O3)c2c(=O)[nH]1 | - | - | HepG2.2.15 | cytopathic effect | 10 µM
CC(C)OC(=O)[C@H](C)N[P@](=O)(OC[C@H]1O[C@@](C#N)(c2ccc3c(N)ncnn23)[C@](C)(O)[C@@H]1OC(=O)C(C)C)Oc1ccccc1 | 4a ED43 | - | Huh7 replicon | luciferase | 0.11 µM
CN(C)CCN(C)[C@H]1COc2ccccc2-c2c(C3CCCCC3)c3ccc(C(=O)O)cc3n2C1 | GT3a | P89L K583E | 1C | luciferase | 0.537 µM
C=C(c1ccc(C(=O)O)cc1)c1cc2c(cc1C)C(C)(C)CCC2(C)C | - | - | Huh7.5.1 | MTT | 0.00019 µM
CC1(C)O[C@H]2[C@@H]3NC(=O)c4cc5c(cc4[C@H]3C[C@H](O)[C@H]2O1)OCO5 | Synthesized HCV RNA | - | Huh7.5 | antigen / microscopy | >11 µM
Cn1cnc([N+](=O)[O-])c1Sc1ncnc2nc[nH]c12 | 1BN | - | MDBK | replicon / PCR | <5 µM
CC(C)CCn1c(=O)/c(=C2\Nc3ccccc3S(=O)(=O)N2)c(=O)c2cccn21 | 1b | - | HCV Huh-7/C24 | replicon | 5.3 µM
Nc1nc(=O)c2ncn(COCCOCc3ccccc3)c2c(=O)[nH]1 | - | - | HepG2.2.15 | cytopathic effect | 10–15 µM
NC(=O)c1nn(Cc2cccc(NC(=O)c3ccccc3)c2)c2ccccc12 | J399EM | - | Huh7.5.1 | fluorescence | 0.125 µM
C[C@@]1(O)[C@H](O)[C@@H](CO)O[C@H]1c1ccc2c(N)ncnn12 | GT6a | - | Huh7.5 | PCR | 1 µM
CC1=C(/C=C/C(C)=C/C=C/C(C)=C/C(=O)O)C(C)(C)CCC1 | - | - | Huh7.5.1 | MTT | 0.00445 µM
C[C@@]1(O)[C@H](O)[C@@H](CO)O[C@H]1n1cnc2c(N)ncnc21 | 1b Con1 | - | Huh7 replicon | luciferase | 0.2 µM
CC[C@H](C)C(=O)O[C@H]1CC=CC2C=C[C@H](C)[C@H](CC[C@@H]3C[C@@H](O)CC(=O)O3)[C@H]21 | - | - | Huh 5-2 | luciferase / replicon | 1.3 µM
CC(C)CCn1c(=O)/c(=C2\Nc3ccc(NS(C)(=O)=O)cc3S(=O)(=O)N2)c(=O)c2cccn21 | 1b | - | HCV Huh-7/C24 | replicon | 0.0085 µM
Cc1ccccc1C(=O)Nc1cccc(Cn2nc(C(N)=O)c3ccccc32)c1 | J399EM | - | Huh7.5.1 | fluorescence | 0.035 µM
CCCCCCCCCCCCNc1nc(=O)c2ncn([C@H]3C[C@H](O)[C@@H](CO)O3)c2c(=O)[nH]1 | - | - | HepG2.2.15 | cytopathic effect | >500 µM
C[C@@]1(O)[C@H](O)[C@@H](CO)O[C@H]1n1cnc2c(N)ncnc21 | - | - | Con-1 | cytopathic effect | 0.3031 µM
CNC(=O)c1c(-c2ccc(F)cc2)oc2cc(N(CCO)S(C)(=O)=O)c(C3CC3)cc12 | GT2a | - | Huh7 | luciferase / replicon | 0.0433 µM
CCN(CC)CCN1C(=O)c2cccc3cc(N)cc(c23)C1=O | sg1b | - | Huh7-1 | PCR | 10.3 µM
CCC[C@H](NC(=O)[C@@H]1[C@H]2CCC[C@H]2CN1C(=O)[C@@H](NC(=O)[C@@H](NC(=O)c1cnccn1)C1CCCCC1)C(C)(C)C)C(=O)C(=O)NC1CC1 | J399EM | - | Huh7.5.1 | GFP / fluorescence | 0.528 µM
CCC[C@H](NC(=O)[C@@H]1[C@H]2CCC[C@H]2CN1C(=O)[C@@H](NC(=O)[C@@H](NC(=O)c1cnccn1)C1CCCCC1)C(C)(C)C)C(=O)C(=O)NC1CC1 | genotype 1b | Y93H+V153M+M202L+M265V | Huh7.5 | luciferase / reporter gene | 0.1582 µM
Nc1nc(=O)c2ncn(CCOCP(=O)(O)O)c2c(=O)[nH]1 | - | - | HepG2.2.15 | cytopathic effect | 100 µM
COC(=O)N[C@H](C(=O)N1CCC[C@H]1c1ncc(-c2ccc(-c3ccc(-c4cnc([C@@H]5CCCN5C(=O)[C@@H](NC(=O)OC)C(C)C)[nH]4)cc3)cc2)[nH]1)C(C)C | HK6a | - | Huh7.5 | antigen | 0.00006 µM
C[C@@]1(O)[C@H](O)[C@@H](CO)O[C@H]1n1cnc2c(N)ncnc21 | GT2b | - | Huh7-Lunet | luciferase | 0.35 µM
[N-]=[N+]=N[C@]1(CO)O[C@@H](n2ccc(N)nc2=O)[C@H](O)[C@@H]1O | - | - | Huh 5-2 | luciferase | >33 µM
COC(=O)N[C@H](C(=O)N1CCC[C@H]1c1ncc(-c2ccc(-c3ccc(-c4cnc([C@@H]5CCCN5C(=O)[C@@H](NC(=O)OC)C(C)C)[nH]4)cc3)cc2)[nH]1)C(C)C | GT3a | P89L K583E | 1C | luciferase | 0.00059 µM
CC(C)(C)OC(=O)N[C@@H]1CCCCC/C=C\[C@@H]2C[C@@]2(C(=O)NS(=O)(=O)C2CC2)NC(=O)[C@@H]2C[C@@H](OC(=O)N3Cc4cccc(F)c4C3)CN2C1=O | JFH-1 | L1062M R1181K | Huh7.5 | antigen | 4.307 µM
CS(=O)(=O)Nc1ccc2c(c1)S(=O)(=O)N=C(C1=C(O)[C@@H]3[C@H]4CC[C@H](C4)[C@@H]3N(Cc3ccc(F)cc3)C1=O)N2 | GT3a | - | Huh7.5 | luciferase / replicon | 26.06 µM

A second listing of 4 rows from above:

compound | strain or isolate | changes | cell line | read by | result
CC(C)CCn1c(=O)/c(=C2\Nc3ccc(NS(C)(=O)=O)cc3S(=O)(=O)N2)c(=O)c2cccn21 | 1b | - | HCV Huh-7/C24 | replicon | 0.0085 µM
CCC[C@H](NC(=O)[C@@H]1[C@H]2CCC[C@H]2CN1C(=O)[C@@H](NC(=O)[C@@H](NC(=O)c1cnccn1)C1CCCCC1)C(C)(C)C)C(=O)C(=O)NC1CC1 | J399EM | - | Huh7.5.1 | GFP / fluorescence | 0.528 µM
Cc1cc2c(cc1-c1cc(/C=C/C(=O)O)ccc1O)C(C)(C)CCC2(C)C | - | - | Huh7.5.1 | MTT | 0.00026 µM
CNC(=O)c1c(-c2ccc(F)cc2)oc2cc(N(CCO)S(C)(=O)=O)c(C3CC3)cc12 | GT2a | - | Huh7 | luciferase / replicon | 0.0433 µM